IC50 data for one compound are collected here from ChEMBL document CHEMBL5331067, “Disubstituted pyrimidine-5-carboxamide derivatives as novel HIV-1 NNRTIs: Crystallographic overlay-based molecular design, synthesis, and biological evaluation” (Eur J Med Chem, 2023).

In this test the target is Human immunodeficiency virus type 1 reverse transcriptase (Human immunodeficiency virus 1, UniProt Q72547). Put plainly: Inhibition of wild type HIV-1 reverse transcriptase assessed as reduction of biotin-dUTP incorporation into […] using ABTS as substrate incubated for 1 hrs by ELISA analysis.

The structures appear in SMILES notation.

As usually defined, the IC50 is the concentration that inhibits the measured activity by half. With `Cc1cc(C#N)cc(C)c1Oc1nc(Nc2ccc(C#N)cc2)nc(N)c1Br` [ETRAVIRINE], the IC50 was found to be 8 nM.
